The source of these data is paper PMC3597823.

As a reminder, the kon is the second-order rate constant of association. A high value points to fast association. Broadly, the koff is the first-order rate constant of dissociation. A higher koff goes with fast dissociation.

Test [1] concerns the target N1 peptide P1 ([change]–94), Myc-tagged (murine). Nature of the test: SPR. (In general: Surface plasmon resonance follows binding to a sensor surface in real time, without labels.)
The target in test [2] is N1 peptide P2 ([change]–94), Myc-tagged (murine). Nature of the test: SPR.

In turn, “synthetic Aβ_(1–42) oligomers (Aβ-derived diffusible ligands) (from UniProt P05067) (peptide)” came in with a kon in test [1] of 8710 M⁻¹ s⁻¹. In test [2], this substance showed a decrease of binding against N1 of 72% and a koff of 0.000137 s⁻¹.
